Results on 29 molecules are retold here after PubChem BioAssay AID1448 (The Scripps Research Institute Molecular Screening Center, 2008).

By UniProt entry, the sequences of proteins in these tests, tags left out.
UniProt Q8TDD5, whole entry: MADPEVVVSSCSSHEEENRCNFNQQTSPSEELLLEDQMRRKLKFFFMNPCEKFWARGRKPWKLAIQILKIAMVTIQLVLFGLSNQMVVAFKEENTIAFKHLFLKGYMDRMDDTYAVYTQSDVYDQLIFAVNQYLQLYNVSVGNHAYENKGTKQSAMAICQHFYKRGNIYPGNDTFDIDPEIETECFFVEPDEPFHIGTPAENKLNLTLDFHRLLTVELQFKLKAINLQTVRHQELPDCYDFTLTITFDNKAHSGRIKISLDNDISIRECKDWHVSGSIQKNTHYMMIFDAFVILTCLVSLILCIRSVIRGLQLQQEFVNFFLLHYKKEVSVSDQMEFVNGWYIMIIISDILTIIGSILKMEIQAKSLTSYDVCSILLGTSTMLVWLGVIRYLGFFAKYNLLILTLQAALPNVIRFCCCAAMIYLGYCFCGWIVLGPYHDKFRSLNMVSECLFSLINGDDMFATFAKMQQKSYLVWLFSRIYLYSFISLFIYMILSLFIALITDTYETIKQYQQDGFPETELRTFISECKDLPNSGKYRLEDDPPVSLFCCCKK

The entries are a selection whose mix differs from that of the whole data set. Active and inactive are the calls of the source.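 How the source made its calls: active means activation above its plate's cutoff, the mean activation of the plate's test wells plus 3 SD (cut at about 12% in these data); inactive means the rest.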

The target of this assay is Mucolipin-3 (Homo sapiens) (UniProt Q8TDD5). Nature of the assay: human TRPML3 channel agonists, primary screen, cell-based, HEK293 TRPML3-YFP, Fluo-8 calcium fluorescence, 3 µM (AID 1448).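 Further: 0% = DMSO only wells and 100% = carbachol wells.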 To be noted: at 3 µM, active compounds read high, 100% = the carbachol control signal. Put shortly: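 Material: HEK293 cells stably carrying human TRPML3-YFP; compound dosing: single dose, 3 µM final nominal compound, 0.3% DMSO final; incubation: 1-h 37 °C dye load, 5-s basal, 120-s post-compound reads; technique: Fluo-8 intracellular calcium fluorescence, excitation 470-495 nm, emission 515-575 nm; read-out basis: percent activation from peak-to-basal fluorescence ratio, scaled between DMSO and carbachol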
Regarding `O=C(NCC1(N2CCCCC2)CCCCC1)c1cccc([N+](=O)[O-])c1`, the activation is inactive: 0.67%. Turning to `N#CC1(Nc2ccccc2)CCN(CCc2ccccc2)CC1`, the activation is inactive: 0.07%.

On to `CN1CCN(CCOC(=O)C(O)(c2ccccc2)c2ccccc2)CC1`, for which the activation was inactive: 0.88%. The value for `COc1ccc(NC2CCN(C(=O)OC(C)(C)C)CC2)cc1` was inactive: 0.06%; that for `O=C(NCC1(N2CCOCC2)CCCCC1)c1cc(=O)[nH]c2ccccc12` was inactive: 0.15%. Under `CN(C)c1cccc(C(=O)NCC2(N3CCCCC3)CCCCC2)c1` stands inactive: 0.98%; under `COc1ccc(CN(CCCl)CCCl)cc1Cl`, inactive: 0.31%; under `CC(C)c1ccc(NC2CCN(C(=O)OC(C)(C)C)CC2)cc1`, inactive: 2.76%. For the molecule `CN1CCC(Nc2cccc(F)c2)CC1`, the activation is inactive: -0.13%. For the molecule `COc1ccc(C(=O)NCC2(N3CCCCC3)CCCCC2)c(OC)c1OC`, the activation was inactive: 0.68%. In the case of `CCOC(=O)N1CCC(Nc2ccc(OC)cc2)CC1`, the activation was inactive: 0.11%.

For the molecule `N#CC1(Nc2ccccc2)CCN(Cc2ccccc2)CC1`, the activation was inactive: 1.12%. Under `O=C(OC1CN2CCC1CC2)C1c2ccccc2Oc2ccccc21` (centres undefined) stands inactive: 0.43%. Under `O=C(NCC1(N2CCOCC2)CCCCC1)c1cc2ccccc2o1` stands inactive: 0.34%; under `COc1ccc(NC2CCN(CCc3ccccc3)CC2)c(OC)c1`, inactive: 0.17%. The value for `CCOc1ccc(C)cc1CN(CCCl)CCCl` was inactive: 0.11%; that for `Cc1ccc(OCC(C)C)c(CN(CCCl)CCCl)c1` was inactive: -0.06%; that for `CN(C)c1ccc(C(=O)NCC2(N3CCCCC3)CCCCC2)cc1` was inactive: 1.53%. Turning to `CCN1CCC(Nc2cccc(F)c2)CC1`, the activation was inactive: 0.55%. Under `CC(C)(C)OC(=O)N1CCC(Nc2ccccc2)CC1` stands inactive: 1.17%. The value for `CCOc1ncccc1C(=O)NCC1(N2CCOCC2)CCCCC1` was inactive: -0.5%; that for `CCCOc1ccc(C)cc1CN(CCCl)CCCl` was inactive: 0%; that for `CCC(CO)(C(=O)OC1CN2CCC1CC2)c1ccccc1` (centres undefined) was inactive: 0.89%. The value for `COc1cc(OC)cc(C(=O)NCC2(N3CCOCC3)CCCCC2)c1` was inactive: 0.03%; that for `COc1ccc(C(=O)NCC2(N3CCOCC3)CCCCC2)cc1OC` was inactive: -0.27%; that for `O=C(OC1CN2CCC1CC2)C1c2ccccc2C=Cc2ccccc21` (centres undefined) was inactive: 0.92%.

Turning to `N/C(=N\O)c1c(N)no[n+]1[O-]`, the activation is inactive: 0.58%. Turning to `N#Cc1ccc(C(=O)NCC2(N3CCCCC3)CCCCC2)cc1`, the activation was inactive: 0.55%. In the case of `c1ccc(CN2CCC(Nc3ccccc3)CC2)cc1`, the activation was inactive: 1.04%.
